Anti-infective test results gathered from many reports (values: NIAID ChemDB through PubChem).

Shared fields: growth or infection tests; organism: Candida albicans

Rows are shuffled and stem from different studies. Blank or dashed fields: not listed here. A number after MIC or MFC names an inhibition level or a share of isolates.

smiles	strain	method	endpoint	result
C[C@@H](n1cnc2cc(N3CCOCC3)ccc2c1=O)[C@](O)(Cn1cncn1)c1ccc(F)cc1F	76 strains	-	MIC	0.31 µg/mL
O=C(Nc1cccc(Cn2ccnc2)c1)c1ccc(F)cc1	27 strains	-	Mean MIC	133 µg/mL
C[C@@H](n1cnc2cc(N(C)C)c(F)cc2c1=O)[C@](O)(Cn1cncn1)c1ccc(F)cc1F	76 strains	-	MIC	40 µg/mL
COc1ccc(-c2csc(N3N=C(c4cccs4)CC3c3ccc(C)cc3)n2)cc1	Clinical isolates	-	MIC	125 µg/mL
N#Cc1ccc(Nc2nc(Oc3cccc4cccnc34)nc(N3CCN(c4cccc(Cl)c4Cl)CC3)n2)cc1C(F)(F)F	MTCC 183	agar	MIC	12.5 µg/mL
COc1ccc(-c2csc(N3N=C(c4cccs4)CC3c3ccccc3)n2)cc1	Clinical isolates	-	MIC	125 µg/mL
Clc1ccc(/C(Cn2ccnc2)=N\OCc2ccccc2)cc1	CDCB385	-	MIC	4 µg/mL
C=CCc1ccc(OC)c(OC)c1	2779	turbidity	MIC90	340 µg/mL
CC(C)N1CCN(c2nc(Nc3ccc(C#N)c(C(F)(F)F)c3)nc(Oc3cccc4cccnc34)n2)CC1	MTCC 183	agar	MIC	100 µg/mL
O=C1/C(=C/c2ccc(O)cc2)CCc2ccccc21	-	-	MIC	100 µg/mL
O=C(Cc1csc2nc(-c3ccc(Br)cc3)cn12)NNC(=S)Nc1ccc([N+](=O)[O-])cc1	ATCC 10231	-	MIC	32 µg/mL
Fc1ccc(/C(Cn2ccnc2)=N/OCc2ccccc2)cc1	CA2	-	MIC	128 µg/mL
C[C@@H](n1cnc2cc(S(C)(=O)=O)ccc2c1=O)[C@](O)(Cn1cncn1)c1ccc(F)cc1F	76 strains	-	MIC	2.5 µg/mL
Cc1ccc(N=Nc2ccc(O)c(C[N+](C)(C)COC3CCCCCC3)c2)cc1	-	-	MIC	37 µM
C[C@@H](c1ncncc1F)[C@](O)(Cn1cncn1)c1ccc(F)cc1F	76 strains	-	MIC	≤0.03 µg/mL
c1ccc(CO/N=C(/Cn2ccnc2)c2ccccc2)cc1	CDCB385	-	MIC	64 µg/mL
CCN1C(=O)CS/C1=N\NC(=O)Cc1csc2nc(-c3ccc(Br)cc3)cn12	ATCC 10231	-	MIC	>32 µg/mL
C[C@H](n1cnc2cc(Cl)ccc2c1=O)[C@@](O)(Cn1cncn1)c1ccc(F)cc1F	406 strains	-	MIC	10 µg/mL
CC(=C/C=C/C(=O)O)/C=C/C=C(\C)C(O)C(C)C(=O)O[C@H]1C[C@H](C)C=C2C=C[C@@]3(C)O[C@@H](O)CC(=O)[C@]3(C)[C@H]21	CCH442	-	MIC	3.12 µg/mL
O=C(Cc1csc2nc(-c3ccc(Br)cc3)cn12)NNC(=S)Nc1ccccc1	ATCC 10231	-	MIC	32 µg/mL
C[C@@H](n1cnc2cc(OCC(F)F)ccc2c1=O)[C@](O)(Cn1cncn1)c1ccc(F)cc1F	76 strains	-	MIC	40 µg/mL
Clc1ccc(/C(Cn2ccnc2)=N/OCc2ccccc2)c(Cl)c1	PR1	-	MIC	8 µg/mL
CCCCCCCCCOC[N+](C)(C)Cc1cc(N=Nc2ccc(C)cc2)ccc1O	-	-	MIC	541 µM
COc1ccc(/C=C2\CSc3ccccc3C2=O)cc1OC	-	-	MIC	100 µg/mL
CC(C)N=C(N)c1ccc2nc(-c3ccc4c(c3)Cc3cc(-c5nc6ccc(C(N)=NC(C)C)cc6[nH]5)ccc3-4)[nH]c2c1	Isolate CA2256 fluconazole-resistant	-	MFC	1.56 µg/mL
c1ccc(C(c2ccccc2)n2nnc3ccccc32)cc1	-	broth dilution	MFC	>256 µg/mL
COc1ccc(-c2cc(-c3ccc(F)cc3)nc(NC(=O)CN3CCOCC3)n2)cc1	-	-	MIC	50 µg/mL
O=C1/C(=C/c2ccc3c(c2)OCO3)COc2ccc(-c3ccccc3)cc21	-	-	MIC	50 µg/mL
COc1cc(CNc2cccc(Cn3ccnc3)c2)cc(OC)c1OC	27 strains	-	Mean MIC	156 µg/mL
COc1ccc(/C=C2\CS(=O)(=O)c3ccccc3C2=O)cc1	-	-	MIC	12.5 µg/mL
CCCOC[N+](C)(C)Cc1cc(N=Nc2ccc(Cl)cc2)ccc1O	-	-	MIC	1256 µM
Cc1nn(-c2ccccc2)c2c1C(c1ccccc1)c1c(nc(=S)[nH]c1N)O2	MTCC 227	-	MIC	200 µg/mL
O=C(N/N=C/c1cc([N+](=O)[O-])ccc1O)c1ccc(I)cc1	ATCC 90028	-	MIC	>25 µg/mL
Cc1nn(-c2ccccc2)c2c1C(c1ccccc1Cl)C(C#N)=C(N)O2	MTCC 227	-	MIC	500 µg/mL
O=C(Cc1csc2nc(-c3ccc(Br)cc3)cn12)N/N=C1\SCC(=O)N1c1ccc(Cl)cc1	ATCC 10231	-	MIC	>32 µg/mL
O=C(Nc1ccccc1Cn1ccnc1)c1ccc([N+](=O)[O-])cc1	27 strains	-	Mean MIC	150 µg/mL
Clc1ccc(/C(Cn2ccnc2)=N/OCc2ccccc2)cc1	5M	-	MIC	64 µg/mL
C[C@@H](n1cnc2c(Br)cc(Br)cc2c1=O)[C@](O)(Cn1cncn1)c1ccc(F)cc1F	76 strains	-	MIC	5 µg/mL
O=C(c1ccccc1)C(c1ccccc1)n1cncn1	-	broth dilution	MFC	128 µg/mL
Cc1cc(C)c2ncn([C@H](C)[C@](O)(Cn3cncn3)c3ccc(F)cc3F)c(=O)c2c1	406 strains	-	MIC	≤0.15 µg/mL
CCCCN1C(=O)CS/C1=N\NC(=O)Cc1csc2nc(-c3ccc(Br)cc3)cn12	ATCC 10231	-	MIC	>32 µg/mL
Clc1ccc(C(c2ccccc2)n2ccnc2)cc1	-	agar	MIC90	0.5 µg/mL
CCCCCOC[N+](C)(C)Cc1cc(N=Nc2ccc(Cl)cc2)ccc1O	-	-	MIC	875 µM
Clc1ccc(-c2csc(N3N=C(c4cccs4)CC3c3ccc4c(c3)OCO4)n2)cc1	Clinical isolates	-	MIC	250 µg/mL
COc1ccc(/C=C2\CS(=O)c3ccccc3C2=O)cc1	-	-	MIC	25 µg/mL
COc1ccc(C(c2ccc(OC)cc2)n2cncn2)cc1	-	agar	MIC90	>256 µg/mL
O=C(Nc1ccc(Cn2ccnc2)cc1)c1ccc([N+](=O)[O-])cc1[N+](=O)[O-]	27 strains	-	Mean MIC	125 µg/mL
C[C@H]1[C@H](O)[C@@H](C)/C=C/C=C/C=C/C=C/C=C/C=C/C=C/[C@H](O[C@@H]2O[C@H](C)[C@@H](O)[C@H](N)[C@@H]2O)C[C@@H]2O[C@](O)(C[C@@H](O)C[C@@H](O)CC[C@H](O)[C@@H](O)C[C@@H](O)CC(=O)O[C@H]1C)C[C@H](O)[C@H]2C(=O)O	10 isolates azole-resistant	-	MIC50	0.05 µg/mL
O=C(Nc1ccccc1Cn1ccnc1)c1ccc(Cl)cc1Cl	27 strains	-	Mean MIC	123 µg/mL
Cc1ccc(-c2csc(N3N=C(c4cccs4)CC3c3ccc4c(c3)OCO4)n2)cc1	Clinical isolates	-	MIC	125 µg/mL
Cc1nn(-c2ccccc2)c2c1C(c1ccc(Cl)cc1)c1c(nc(=S)[nH]c1N)O2	MTCC 227	-	MIC	250 µg/mL
CCN1CCN(c2nc(Nc3ccc(C#N)c(C(F)(F)F)c3)nc(Oc3cccc4cccnc34)n2)CC1	MTCC 183	agar	MIC	100 µg/mL
Nc1[nH]c(=O)ncc1F	40 isolates azole-susceptible	-	MIC50	0.16 µg/mL
Cc1nn(-c2ccccc2)c2c1C(c1ccc(O)cc1)c1c(nc(=O)[nH]c1N)O2	MTCC 227	-	MIC	150 µg/mL
CN(C)c1ccc(CNc2cccc(Cn3ccnc3)c2)cc1	27 strains	-	Mean MIC	116 µg/mL
O=C1/C(=C/c2ccc(-c3ccccc3)cc2)CSc2ccccc21	-	-	MIC	25 µg/mL
C[C@@H](n1cnc2c(Cl)cc(Cl)cc2c1=O)[C@](O)(Cn1cncn1)c1ccc(F)cc1F	76 strains	-	MIC	10 µg/mL
COc1ccc2c(Cc3ccc(C(C)(C)C)cc3)c3[n+](cc2c1OC)CCc1cc2c(cc1-3)OCO2	Isolate YH-019	-	MIC	3.13 µg/mL
O=C(Nc1ccccc1Cn1ccnc1)c1ccccc1	27 strains	-	Mean MIC	166.6 µg/mL
CN1CCN(c2nc(Nc3ccc(C#N)c(C(F)(F)F)c3)nc(Oc3cccc4cccnc34)n2)CC1	MTCC 183	agar	MIC	100 µg/mL
Cc1ccc(C(C)C)cc1	H37	-	MIC	5 µg/mL

For reference, 9 entries again:

| smiles | strain | method | endpoint | result |
|---|---|---|---|---|
| O=C(Nc1ccc(Cn2ccnc2)cc1)c1ccc([N+](=O)[O-])cc1[N+](=O)[O-] | 27 strains | - | Mean MIC | 125 µg/mL |
| C=CCc1ccc(OC)c(OC)c1 | 2779 | turbidity | MIC90 | 340 µg/mL |
| c1ccc(CO/N=C(/Cn2ccnc2)c2ccccc2)cc1 | CDCB385 | - | MIC | 64 µg/mL |
| C[C@@H](n1cnc2c(Cl)cc(Cl)cc2c1=O)[C@](O)(Cn1cncn1)c1ccc(F)cc1F | 76 strains | - | MIC | 10 µg/mL |
| O=C(Nc1ccccc1Cn1ccnc1)c1ccccc1 | 27 strains | - | Mean MIC | 166.6 µg/mL |
| COc1ccc(C(c2ccc(OC)cc2)n2cncn2)cc1 | - | agar | MIC90 | >256 µg/mL |
| Fc1ccc(/C(Cn2ccnc2)=N/OCc2ccccc2)cc1 | CA2 | - | MIC | 128 µg/mL |
| CC(=C/C=C/C(=O)O)/C=C/C=C(\C)C(O)C(C)C(=O)O[C@H]1C[C@H](C)C=C2C=C[C@@]3(C)O[C@@H](O)CC(=O)[C@]3(C)[C@H]21 | CCH442 | - | MIC | 3.12 µg/mL |
| CCCCCCCCCOC[N+](C)(C)Cc1cc(N=Nc2ccc(C)cc2)ccc1O | - | - | MIC | 541 µM |